From patent US20040220095A1, “Pna conjugate for the treatment of diseases associated with hiv” (published 2004)

Test system: chronically HIV-infected cells (viral p24)
Assay: viral p24 ELISA in chronically HIV-infected cells after PNA treatment
Settings: FIG. 13, 72 and 144 h after the PNA application

In the case of N-GTA TTC ATC CAC AAT TTT, the “viral p24 (ELISA) following PNA treatment” value is reported as “best effect”.
